# Laboratory results as given in paper PMC6602965.
# Biological target: AhlC head mutant (triple L156T, L160T, L161T) (Aeromonas hydrophila strain AL09-71)
# Assay: crystal structure; AhlC head mutant, 0.1 M imidazole pH 8, 10% PEG 8000, P6(1)22, 1.92 A; tetramer assembled by crystal symmetry
substance,measurement,value
"AhlC head mutant (triple L156T, L160T, L161T) (natural protein)",stoichiometry N,4
